Where “and” joins values, the source holds several entries; their conditions need not be identical. Identical values can stand only once.
Key:
[1] = system: Candida tropicalis ATCC 750; experiment: In vitro study of inhibition of growth and lethality against yeast (MIC/MLC susceptibility test), isolate A; settings: 2nd pair of lines, isolate assigned by line order, tested form: iodide
[2] = system: Candida albicans KJP-000531594; experiment: In vitro study of inhibition of growth and lethality against yeast (MIC/MLC susceptibility test), isolate C; settings: 1st pair of lines, tested form: iodide
[3] = system: Candida tropicalis ATCC 28707; experiment: In vitro study of inhibition of growth and lethality against yeast (MIC/MLC susceptibility test), isolate B; type: cell-based; settings: 1st pair of lines, isolate assigned by line order, tested form: iodide
[4] = system: Torulopsis glabrata ERH-BC9938274; experiment: In vitro study of inhibition of growth and lethality against yeast (MIC/MLC susceptibility test), isolate F; type: cell-based; settings: 1st pair of lines, isolate assigned by line order, tested form: iodide
[5] = system: Candida albicans LH-000664533; experiment: In vitro study of inhibition of growth and lethality against yeast (MIC/MLC susceptibility test), isolate D; type: cell-based; settings: 2nd pair of lines, isolate assigned by line order, tested form: iodide
[6] = system: Cryptococcus neoformans SLP-BC0012854; experiment: In vitro study of inhibition of growth and lethality against yeast (MIC/MLC susceptibility test), isolate H; settings: 2nd pair of lines, isolate assigned by line order, tested form: iodide
[7] = system: Cryptococcus neoformans DLB-1027594CNC; experiment: In vitro study of inhibition of growth and lethality against yeast (MIC/MLC susceptibility test), isolate G; type: cell-based; settings: 1st pair of lines, isolate assigned by line order, tested form: iodide
[8] = system: Torulopsis glabrata JHC-BC9951635; experiment: In vitro study of inhibition of growth and lethality against yeast (MIC/MLC susceptibility test), isolate E; settings: 2nd pair of lines, isolate assigned by line order, tested form: iodide

C[n+]1c2c(cc3ccccc31)C(=O)OCCCCCCCCn1cc-2c2cc(OCc3ccccc3)ccc21
Minimum Lethal Conc. (MLC) [1]: 8 µg/mL | Minimum Inhibitory Conc. (MIC), 24 hr. ([1]; read at 24 hr): 2 µg/mL and 4 µg/mL | Minimum Inhibitory Conc. (MIC), 48 hr. ([1]; read at 48 hr): 4 µg/mL | Minimum Lethal Conc. (MLC) ([2]; isolate assigned by line order): 8 µg/mL | Minimum Inhibitory Conc. (MIC), 24 hr. ([2]; read at 24 hr, isolate not given, assigned by line order and MLC of Table 4B): 2 µg/mL | Minimum Inhibitory Conc. (MIC), 48 hr. ([2]; read at 48 hr, isolate assigned by line order): 4 µg/mL | Minimum Lethal Conc. (MLC) [3]: 4 µg/mL | Minimum Inhibitory Conc. (MIC), 24 hr. ([3]; read at 24 hr): 0.25 µg/mL and 0.5 µg/mL | Minimum Inhibitory Conc. (MIC), 48 hr. ([3]; read at 48 hr): 0.5 µg/mL | Minimum Lethal Conc. (MLC) [4]: 32 µg/mL | Minimum Inhibitory Conc. (MIC), 24 hr. ([4]; read at 24 hr): 16 µg/mL and 8 µg/mL | Minimum Inhibitory Conc. (MIC), 48 hr. ([4]; read at 48 hr): 16 µg/mL | Minimum Lethal Conc. (MLC) [5]: 16 µg/mL | Minimum Inhibitory Conc. (MIC), 24 hr. ([5]; read at 24 hr): 4 µg/mL and 2 µg/mL | Minimum Inhibitory Conc. (MIC), 48 hr. ([5]; read at 48 hr): 4 µg/mL | Minimum Lethal Conc. (MLC) [6]: 16 µg/mL | Minimum Inhibitory Conc. (MIC), 48 hr. ([6]; read at 48 hr): 8 µg/mL | Minimum Inhibitory Conc. (MIC), 72 hr. ([6]; read at 72 hr): 8 µg/mL | Minimum Lethal Conc. (MLC) [7]: 16 µg/mL | Minimum Inhibitory Conc. (MIC), 48 hr. ([7]; read at 48 hr): 8 µg/mL | Minimum Inhibitory Conc. (MIC), 72 hr. ([7]; read at 72 hr): 8 µg/mL | Minimum Lethal Conc. (MLC) [8]: 32 µg/mL | Minimum Inhibitory Conc. (MIC), 24 hr. ([8]; read at 24 hr): 16 µg/mL and 8 µg/mL | Minimum Inhibitory Conc. (MIC), 48 hr. ([8]; read at 48 hr): 16 µg/mL
